Measured values from several laboratories, pooled; numbers as filed in NIAID ChemDB.

Common to all: whole-cell or culture tests; agent: HIV-1; cell line: PBMC; measure: EC50

An empty or dashed field is not shown. ECn is the concentration giving n% inhibition of infection, replication or growth. Neighbouring rows are from separate reports.

compound | strain or isolate | mutations | method | value
CN(C[C@@H](CCN1CCC2(CC1)CS(=O)c1ccccc12)c1ccc(Cl)c(Cl)c1)S(=O)(=O)c1ccccc1 | YU-2 R5 strain |  | p24 | <6 µM
COC(=O)[C@H](C)NP(=O)(OC[C@@H]1OC[C@H](n2cc(C)c(=O)[nH]c2=O)O1)Oc1ccccc1Cl | LAI | RT-M184V | RT activity | 0.53 µM
O=C(CNC(=O)COc1ccccc1)NCc1ccc(C(=O)N2CCCCC2)cc1 | 89BZ167 |  | RT activity | 17.7 µM
Nc1ccn([C@H]2O[C@@H](CO)C=C2F)c(=O)n1 | LAV |  | RT activity | 0.51 µM
COC(=O)[C@H](C)NP(=O)(OC[C@@H]1C=C[C@H](n2cc(C)c(=O)[nH]c2=O)O1)Oc1ccccc1Br | IIIB |  | p24 | 0.002 µM
Nc1nc2c(ncn2[C@@H]2O[C@@H](CO)[C@H](O)C2(F)F)c(=O)[nH]1 | LAI |  | RT activity | >100 µM
CN1c2c(-c3ccccc3)nn(CC(=O)N/N=C/c3cccc(Br)c3)c2-c2ccccc2S1(=O)=O | LAV-1 |  | RT activity | >100 µM
C=C1CN(S(=O)(=O)c2ccc(C)cc2)CCCN(Cc2ccccc2)CCCN(S(=O)(=O)c2ccc(C)cc2)C1 | CI #17 |  | p24 | 0.86 µg/mL
COc1c(C)c2c(c(O)c1C/C=C(\C)CCC(=O)O)C(=O)OC2 | LAV-1 |  | p24 | 0.052 µM
COc1ccc2c(c1)N(C(=O)OC(C)C)[C@@H](CSC)C(=S)N2 | MN: RS(HBY 097) |  | p24 | >10 µM
O=c1[nH]c(=O)n([C@@H]2O[C@@H](CO)[C@H](O)C2(F)F)cc1Br | LAI |  | RT activity | >100 µM
C[C@H]1[C@H](O)[C@@H](C)/C=C/C=C/C=C/C=C/C=C/C=C/C=C/[C@H](O[C@@H]2O[C@H](C)[C@@H](O)[C@H](N)[C@@H]2O)C[C@@H]2O[C@](O)(C[C@@H](O)C[C@@H](O)CC[C@H](O)[C@@H](O)C[C@@H](O)CC(=O)O[C@H]1C)C[C@H](O)[C@H]2C(=O)O | 92BR014 CLADE B X4/R5 (SI) |  | p24 / RT activity | 2.6 µM
O=C(O)C(=O)/C=C(\O)c1cccn1Cc1ccc(F)cc1 | BaL |  | syncytia | 0.0137 µM
Nc1ccn([C@H]2S[C@@H](CO)C=C2F)c(=O)n1 | LAI |  | PCR | <24.6 µM
Nc1nccc2c1ncn2[C@H]1CC[C@@H](CO)C1 | A012 |  | p24 | 3.7 µM
O=c1[nH]c(=O)n([C@H]2O[C@@H](CO)[C@H](O)C2(F)F)cc1Br | LAI |  | RT activity | >100 µM
NCC(NC(=O)c1ccc(-c2cc(F)c(Cl)c(F)c2)[nH]1)c1nc(CO)cs1 | NL4-3 |  | p24 / ELISA | 1.2 µM
COC(=O)[C@@H](Cc1ccccc1)NP(=O)(OC[C@@H]1OC[C@H](n2cc(C)c(=O)[nH]c2=O)O1)Oc1ccccc1 | LAI | RT-M184V | RT activity | 13.7 µM
COc1ccc2[nH]c(=O)c(CN(Cc3cccnc3)S(=O)(=O)c3cccc4nsnc34)cc2c1 | IIIB |  | p24 / ELISA | 0.0096 µM
O=c1[nH]cnc2c1ncn2[C@H]1O[C@@H](CO)[C@H](O)C1(F)F | LAI |  | RT activity | >100 µM
CO.S=C([N-]c1ccc(Br)cn1)NCCc1ccccc1Cl.S=C([N-]c1ccc(Br)cn1)NCCc1ccccc1Cl.[O]=[V+2] | IIIB |  | p24 | 0.08 µM
Nc1ncnc2c1ncn2[C@@H]1C=C(CO)[C@@H](O)[C@H]1O | A018 |  | p24 | 0.018 µM
S=C(NCCc1ccccc1Cl)Nc1ccc(Br)cn1 | IIIB |  | p24 | <0.001 µM
Cc1cn([C@H]2C[C@H](N=[N+]=[N-])[C@@H](CO)O2)c(=O)[nH]c1=O | LAI |  | RT activity | 0.03 µM
Nc1ccn([C@@H]2S[C@H](CO)C=C2F)c(=O)n1 | RT-M184V |  | RT activity | <125 µM
COC(=O)[C@H](C)NP(=O)(OC[C@@H]1OC[C@H](n2cc(C)c(=O)[nH]c2=O)O1)Oc1cccc2ccccc12 | LAI | RT-M184V | RT activity | 0.14 µM
Nc1ccn(C[C@H]2C[C@H]2CO)c(=O)n1 | LAV |  |  | >100 µM
CN1c2c(-c3ccccc3)nn(CC(=O)N/N=C/c3c(Cl)cccc3Cl)c2-c2ccccc2S1(=O)=O | LAV-1 |  | RT activity | >100 µM
O=c1[nH]cnc2c1ncn2C[C@H]1C[C@H]1[C@H](O)CO | LAV |  |  | >100 µM
Cc1cn([C@H]2C[C@H](N=[N+]=[N-])[C@@H](CO)O2)c(=O)[nH]c1=O | Ba-L (R5-tropic) |  | RT activity | 0.0066 µM
Nc1nccc2c1ncn2[C@@H]1C=C(CO)[C@@H](O)[C@H]1O | A012 |  | p24 | 0.01 µM
CN1c2c(-c3ccccc3)nn(CC(=O)N/N=C/c3cccc([N+](=O)[O-])c3)c2-c2ccccc2S1(=O)=O | LAV-1 |  | RT activity | >100 µM
Cc1nc(C(CN)NC(=O)c2ccc(-c3ccc4c(c3)OCO4)[nH]2)sc1CO | BaL |  | p24 / ELISA | 2.8 µM
CC(C)=CCOc1cc(NC(=S)c2ccoc2C)ccc1Cl | WEJO |  | p24 | 0.007 µM
COC(=O)[C@H](C)NP(=O)(OC[C@@H]1OC[C@H](n2cc(C)c(=O)[nH]c2=O)O1)Oc1ccc(CC(C)(C)C)cc1 | LAI | RT-M184V | RT activity | 0.99 µM
COc1ccnc2[nH]cc(C(=O)C(=O)N3CCN(C(=O)c4ccccc4)C[C@H]3C)c12 | LAI |  | RT activity | <0.04 µM
Nc1ccc2c(O)c(Br)c(S(=O)(=O)O)cc2c1Br | 89.6 |  | p24 | ~125 µM
CC(C)CN(C[C@@H](O)[C@H](Cc1ccccc1)NC(=O)O[C@H]1CO[C@H]2OCC[C@H]21)S(=O)(=O)c1ccc2nc(NC3CCN(C4CCCC4)CC3)sc2c1 | LAI |  | p24 | 2.2 nM
CN1c2c(-c3ccccc3)nn(CC(=O)N/N=C/c3ccc(Br)cc3)c2-c2ccccc2S1(=O)=O | LAV-1 |  | RT activity | >100 µM
Cc1cc2ccccc2c(-c2ccc3c4c(ccnc24)CCO3)c1[C@H](OC(C)(C)C)C(=O)O | HXB2 |  | p24 | 0.0072 µM
Cc1cn(C[C@H]2C[C@H]2[C@H](O)CO)c(=O)[nH]c1=O | LAV |  |  | 56.1 µM
NC(=O)CCNC(=O)c1ccccc1S |  |  | absorbance | 0.527 µM
Cc1nnc(C(C)C)n1C1C[C@H]2CC[C@@H](C1)N2CC[C@H](NC(=O)C1CCC(F)(F)CC1)c1ccccc1 | NLAD8 |  | luciferase | 0.245 µM
Nc1nccc2c1ncn2[C@@H]1O[C@H](CO)[C@@H](O)[C@H]1O | A018 |  | p24 | 0.2 µM
COC(=O)C(C)NP(=O)(OC[C@@H]1C=C[C@H](n2cc(C)c(=O)[nH]c2=O)O1)Oc1cccc(N(C)C)c1 | IIIB |  | p24 | 0.025 µM
Nc1ccn([C@@H]2C=C(CO)[C@@H](O)[C@H]2O)c(=O)n1 | LAV |  | RT activity | 0.6 µM
Cc1cn([C@@H]2O[C@@H](CO)[C@H](O)C2(F)F)c(=O)[nH]c1=O | LAI |  | RT activity | >100 µM
S=C(NCCN1CCNCC1)Nc1ccc(Br)cn1 | IIIB |  | RT activity | 8.6 µM
CC[C@@]1(O)C(=O)OCc2c1cc1n(c2=O)Cc2cc3c(CN(C)C)c(O)ccc3nc2-1 | IIIB |  | p24 | 0.01 µM
O=C(NCc1ccc(F)cc1)c1nc(N2CCCCS2(=O)=O)c2cccnc2c1O | BaL |  | syncytia | 0.0143 µM
CN1c2c(-c3ccccc3)nn(CC(=O)N/N=C/c3ccccc3Br)c2-c2ccccc2S1(=O)=O | LAV-1 |  | RT activity | >100 µM
COC[C@@H](c1ccc(C(F)(F)F)cc1)N1CCN(C2(C)CCN(C(=O)c3c(C)ncnc3C)CC2)C[C@@H]1C | S | V535M |  | 0.00069 µM
COC(=O)[C@H](C)NP(=O)(OC[C@@H]1C=C[C@H](n2cc(C)c(=O)[nH]c2=O)O1)Oc1ccccc1Cl | IIIB |  | p24 | 0.003 µM
CN1c2c(-c3ccccc3)nn(CC(=O)N/N=C/c3ccccc3[N+](=O)[O-])c2-c2ccccc2S1(=O)=O | LAV-1 |  | RT activity | >100 µM
COc1ccc2ccc3c(c2c1)OC1(CCN(Cc2ccc(C#N)cc2)CC1)NC3=O |  |  | ELISA | 0.39 µM
COC(=O)[C@H](C)NP(=O)(OC[C@@H]1C=C[C@H](n2cc(C)c(=O)[nH]c2=O)O1)Oc1cc(Cl)ccc1Cl | IIIB |  | p24 | 0.001 µM
O=c1ccn([C@H]2C=C[C@@H](CO)O2)c(=O)n1CCCCCCN1CCN(CCNC(=S)Nc2ccc(Br)cn2)CC1 | IIIB |  | RT activity | 88 µM
CS(=O)c1ccc(-c2nc(-c3ccc(F)cc3)c(-c3ccncc3)[nH]2)cc1 | Nevirapine resistant N119 Clinical isolate |  | p24 | >1 µM
Cc1cn([C@H]2CO[C@@H](COP(=O)(N[C@@H](C)C(=O)OCc3ccccc3)Oc3cccc4ccccc34)O2)c(=O)[nH]c1=O | LAI | RT-M184V | RT activity | 2.2 µM
CN1c2c(-c3ccccc3)nn(CC(=O)N/N=C/c3ccc(Cl)c(Cl)c3)c2-c2ccccc2S1(=O)=O | LAV-1 |  | RT activity | >100 µM

The first 5 rows once more:

| compound | strain or isolate | mutations | method | value |
|---|---|---|---|---|
| CN(C[C@@H](CCN1CCC2(CC1)CS(=O)c1ccccc12)c1ccc(Cl)c(Cl)c1)S(=O)(=O)c1ccccc1 | YU-2 R5 strain |  | p24 | <6 µM |
| COC(=O)[C@H](C)NP(=O)(OC[C@@H]1OC[C@H](n2cc(C)c(=O)[nH]c2=O)O1)Oc1ccccc1Cl | LAI | RT-M184V | RT activity | 0.53 µM |
| O=C(CNC(=O)COc1ccccc1)NCc1ccc(C(=O)N2CCCCC2)cc1 | 89BZ167 |  | RT activity | 17.7 µM |
| Nc1ccn([C@H]2O[C@@H](CO)C=C2F)c(=O)n1 | LAV |  | RT activity | 0.51 µM |
| COC(=O)[C@H](C)NP(=O)(OC[C@@H]1C=C[C@H](n2cc(C)c(=O)[nH]c2=O)O1)Oc1ccccc1Br | IIIB |  | p24 | 0.002 µM |